Anti-infective test results gathered from many reports (values: NIAID ChemDB through PubChem).

Common to all: whole-cell or culture tests; organism: Plasmodium falciparum

ECn is the concentration giving n% inhibition of infection, replication or growth.

structure | conditions | strain or isolate | read by | dose | cells | mutations | read-out | result
CC[C@H]1OC(=O)[C@H](C)[C@@H](OC2C[C@@](C)(OC)[C@@H](O)[C@H](C)O2)[C@H](C)[C@@H](OC2O[C@H](C)C[C@H](N(C)C)[C@H]2O)[C@](C)(OC2C[C@H](N)[C@H](O)[C@H](C)O2)C[C@@H](C)C(=O)[C@H](C)[C@@H](O)[C@]1(C)O | 48 h | 3D7 | fluorescence |  | RBC |  | EC50 | 38.2 µM
N=C(N)c1ccc(OCCOc2ccc(C(=N)N)cc2N)c(N)c1 |  | W2 | hypoxanthine uptake |  |  |  | EC50 | 2.629 µM
CCO/C(=N/NC(=O)OC)C(C)(O)c1ccc(C)c(C)c1 |  | 3D7 | hypoxanthine uptake / radiometric | 5 µM |  |  | inhibition | 19%
Cn1nc(C(F)(F)F)c(-c2ccc(Br)cc2)c1NC(=O)Nc1ccc(F)cc1F |  | KAE609R-2 | SYBR Green / fluorescence |  |  | KAE609-resistant (T418N/P990R) | EC50 | 0.613 µM
N=C(N)c1ccc(NCCCCCNc2ccc(C(=N)N)cc2)cc1 |  | D6 | hypoxanthine uptake |  |  |  | EC50 | 0.03 µM
CCO/C(=N/NC(=O)OC(C)(C)C)C(O)c1ccc(Cl)c(Cl)c1 |  | 3D7 | hypoxanthine uptake / radiometric | 5 µM |  |  | inhibition | 12%
CCN(CC)CCCC(C)Nc1ccnc2cc(Cl)ccc12 | 48 h | Dd2 |  | 0.031 µg/mL |  |  | inhibition | 35%
N=C(N)c1ccc(NCCCCCNc2ccc(C(=N)N)cc2[N+](=O)[O-])c([N+](=O)[O-])c1 |  | D6 | hypoxanthine uptake |  |  |  | EC50 | 0.109 µM
CCO/C(=N/NC(=O)NCc1ccc(C)cc1)C(C)(O)c1ccc(Cl)c(Cl)c1 |  | 3D7 | hypoxanthine uptake / radiometric | 5 µM |  |  | inhibition | 15%
CCC[C@H]1O[C@@H]2CC(=O)O[C@@H]2C2=C1C(=O)c1c(O)cccc1C2=O |  | Dd2 | SYBR Green | 2.1 µM |  |  | inhibition | 90%
CC(C)(C)OC(=O)N/N=C(/OCc1ccccc1)C(C)(O)c1ccc(Cl)c(Cl)c1 |  | 3D7 | hypoxanthine uptake / radiometric | 5 µM |  |  | inhibition | 0%
CCN(CC)CCCC(C)Nc1ccnc2cc(Cl)ccc12 |  | KAE609R-2 | SYBR Green / fluorescence |  |  | KAE609-resistant pfatp4 T418N/P990R | EC50 | 0.013 µM
N=C(N)c1ccc(NCCCCNc2ccc(C(=N)N)cc2)cc1 |  | W2 | hypoxanthine uptake |  |  |  | EC50 | 0.135 µM
C[C@H]1CCc2c([nH]c3ccccc23)[C@@]2(N1)C(=O)Nc1ccc(Cl)cc12 |  | KAE609R-2 | SYBR Green / fluorescence |  |  | KAE609-resistant (T418N/P990R) | EC50 | 0.236 µM
CC[C@H]1OC(=O)[C@H](C)[C@@H](OC2C[C@@](C)(OC)[C@@H](O)[C@H](C)O2)[C@H](C)[C@@H](OC2O[C@H](C)C[C@H](N(C)C)[C@H]2O)[C@](C)(OC2C[C@@H](N(C)C)[C@@H](O)[C@H](C)O2)C[C@@H](C)CN(C)[C@H](C)[C@@H](O)[C@]1(C)O | 48 h | 3D7 | fluorescence |  | RBC |  | EC50 | 1.6 µM
CCOC(=O)N/N=C(/OCc1ccc(Cl)cc1)C(C)(O)c1ccc(Cl)cc1 |  | 3D7 | hypoxanthine uptake / radiometric | 5 µM |  |  | inhibition | 4%
COc1cc(C(=N)N)ccc1OCCCOc1ccc(C(=N)N)cc1OC |  | W2 | hypoxanthine uptake |  |  |  | EC50 | 0.116 µM
CCO/C(=N/NC(=O)NC)C(C)(O)c1ccc(Cl)c(Cl)c1 |  | 3D7 | hypoxanthine uptake / radiometric | 5 µM |  |  | inhibition | 75%
COc1cc(C2=NCCN2)ccc1OCCCOc1ccc(C2=NCCN2)cc1OC |  | W2 | hypoxanthine uptake |  |  |  | EC50 | 0.039 µM

2 of the rows above, restated:

N=C(N)c1ccc(OCCOc2ccc(C(=N)N)cc2N)c(N)c1 ; strain or isolate: W2 ; read by: hypoxanthine uptake ; read-out: EC50 ; result: 2.629 µM
COc1cc(C(=N)N)ccc1OCCCOc1ccc(C(=N)N)cc1OC ; strain or isolate: W2 ; read by: hypoxanthine uptake ; read-out: EC50 ; result: 0.116 µM

Neighbouring rows are from separate reports. Inhibition is in % at the dose shown (toxicity tests: loss of growth or viability). Blank or dashed fields: not listed here.